Anti-infective test results gathered from many reports (values: NIAID ChemDB through PubChem).

All rows: enzyme or target tests

Lines come from different laboratories, so protocols vary. ICn: concentration for n% inhibition. An empty or dashed field is not shown. Percent inhibition refers to the dose given; in toxicity tests it is the harm to the cells.

structure,organism,strain,target,method,read-out,dose,result
Nc1nc2c(ncn2CC[C@H](O)COP(=O)(O)OP(=O)(O)OP(=O)(O)O)c(=O)[nH]1,Human cytomegalovirus,AD169,DNA polymerase,,IC50,,112 µM
O=C(O)CP(=O)(O)O,Human herpesvirus 6,TYPE 6,DNA polymerase,,inhibition,5 µg/mL,58.9%
Cc1c(NC(=O)OC(C)(C)C)ccc2nc(N(CC(=O)OC(C)(C)C)c3ccccc3)oc(=O)c12,Human cytomegalovirus,,Protease,,IC50,,3 µM
O=C(c1cc2ccccc2cc1O)N1CCN(c2ccc([N+](=O)[O-])cc2)CC1,Human cytomegalovirus,,HCMV DNA polymerase,,IC50,,27.5 µM
COc1ccccc1C(=O)Nc1nnc(NC2CCCCCC2)s1,Human cytomegalovirus,,Polymerase,,IC50,,>25 µM
O=C(Nc1ccc(Cl)cc1)c1cc2cc(O)ccc2cc1O,Human cytomegalovirus,,HCMV DNA polymerase,,IC50,,>40 µM
N/C(=N\OC(=O)Cc1ccccc1)c1ccc(Cl)cc1Cl,Human cytomegalovirus,,Polymerase,scintillation proximity / radiometric,IC50,,44 µM
CCCC[C@H](Nc1nc2cccc(C)c2c(=O)o1)C(=O)OC,Human cytomegalovirus,,Protease,,IC50,,0.41 µM
O=C(/C=C/c1ccccc1Cl)Nc1nnc(NCc2ccncc2)s1,Human cytomegalovirus,,Polymerase,,IC50,,>25 µM
O=C(NCc1ccc([N+](=O)[O-])cc1)c1cc2cc(O)ccc2cc1O,Human cytomegalovirus,,HCMV DNA polymerase,,IC50,,>40 µM
COC(=O)[C@H](C)Nc1nc2ccc(NC(=O)c3ccno3)c(C)c2c(=O)o1,Human cytomegalovirus,,Protease,,IC50,,0.83 µM
O=C(Nc1ccc([N+](=O)[O-])cc1)c1cc2cc(O)ccc2cc1O,Human cytomegalovirus,,HCMV DNA polymerase,,IC50,,33.7 µM
Cc1c(CNC(=O)OC(C)(C)C)ccc2nc(NC3(C(=O)N(C)C)CC3)oc(=O)c12,Human cytomegalovirus,,Protease,,IC50,,0.81 µM
O=C(Nc1ccc(Br)cc1)c1cc2ccccc2cc1O,Human cytomegalovirus,,HCMV DNA polymerase,,IC50,,22.7 µM
Nc1nc2c(ncn2CC[C@@H](O)COP(=O)(O)OP(=O)(O)OP(=O)(O)O)c(=O)[nH]1,Human cytomegalovirus,AD169,DNA polymerase,,IC50,,>150 µM
COC(=O)[C@H](Cc1ccc(I)cc1)Nc1nc2ccc(NC(=O)OC(C)(C)C)c(C)c2c(=O)o1,Human cytomegalovirus,,Protease,,IC50,,0.27 µM
O=C(Nc1ccc(Cl)cc1)c1cc2cccc(O)c2cc1O,Human cytomegalovirus,,HCMV DNA polymerase,,IC50,,>100 µM
O=C(CCCCCl)Nc1nnc(NC2CCCCCC2)s1,Human cytomegalovirus,,Polymerase,,IC50,,>25 µM
COc1cc(OC)cc(C(=O)O/N=C(\N)c2ccc(Cl)cc2Cl)c1,Human cytomegalovirus,,Polymerase,scintillation proximity / radiometric,IC50,,5.3 µM
O=C(NCc1ccc(Cl)cc1)c1c[nH]c2ccc(CCCO)cc2c1=O,Human cytomegalovirus,,Herpesvirus DNA polymerase,,Ki,,0.35 µM
Cc1ccccc1/C(N)=N\OC(=O)c1cccc2ccccc12,Human cytomegalovirus,,Polymerase,scintillation proximity / radiometric,IC50,,>100 µM
Cc1cccc2nc(N[C@H](C)c3ccc(I)cc3)oc(=O)c12,Human cytomegalovirus,,Protease,,IC50,,0.23 µM
COc1ccc2cc(O)c(C(=O)Nc3ccc([N+](=O)[O-])cc3)cc2c1,Human cytomegalovirus,,HCMV DNA polymerase,,IC50,,93.7 µM
O=C1C(Cl)=C(CCCC2CCCCC2)C(=O)c2ccccc21,Human cytomegalovirus,,Protease,scintillation proximity,IC50,,67 µM
CC1(C)C2CC[C@@H](CNc3nnc(NC(=O)/C=C/c4ccccc4Cl)s3)C1C2,Human cytomegalovirus,,Polymerase,,IC50,,>25 µM
COCC(Cc1ccccc1)Nc1nc2cccc(C)c2c(=O)o1,Human cytomegalovirus,,Protease,,IC50,,0.94 µM
O=C(NCc1cccc(F)c1)c1cc2ccccc2cc1O,Human cytomegalovirus,,HCMV DNA polymerase,,IC50,,>100 µM
N/C(=N\OC(=O)c1c(Cl)cccc1Cl)c1ccc(Cl)cc1Cl,Human cytomegalovirus,,Polymerase,scintillation proximity / radiometric,IC50,,37 µM
Nc1nc2c(ncn2CCCCOP(=O)(O)OP(=O)(O)OP(=O)(O)O)c(=O)[nH]1,Human cytomegalovirus,AD169,DNA polymerase,,Ki,,0.23 µM
O=C(Nc1nnc(NCCc2c[nH]c3ccccc23)s1)c1ccc(C(F)(F)F)cc1,Human cytomegalovirus,,Polymerase,,IC50,,>25 µM
COC(=O)CC1=C(Cl)C(=O)c2ccccc2C1=O,Human cytomegalovirus,,Protease,scintillation proximity,inhibition,150 µM,11%
Cc1c(Br)ccc2nc(N(C)Cc3ccccc3)oc(=O)c12,Human cytomegalovirus,,Protease,,IC50,,3.1 µM
O=C(Nc1nnc(NC2CCc3ccccc32)s1)c1cccc([N+](=O)[O-])c1,Human cytomegalovirus,,Polymerase,,IC50,,>25 µM
CC1(C)CC(=O)C(C2=C(Cl)C(=O)c3ccccc3C2=O)C(=O)C1,Human cytomegalovirus,,Protease,scintillation proximity,IC50,,0.73 µM

A second listing of 2 rows from above:

structure,organism,strain,target,method,read-out,dose,result
O=C(/C=C/c1ccccc1Cl)Nc1nnc(NCc2ccncc2)s1,Human cytomegalovirus,,Polymerase,,IC50,,>25 µM
Cc1ccccc1/C(N)=N\OC(=O)c1cccc2ccccc12,Human cytomegalovirus,,Polymerase,scintillation proximity / radiometric,IC50,,>100 µM